Compound potency records, mixed from different reports. Data source: NIAID ChemDB in PubChem.

Common to all: growth or infection tests; organism: Aspergillus fumigatus

Conditions beyond the fields shown may differ between rows. Inhibition is in % at the dose shown (toxicity tests: loss of growth or viability). An empty or dashed field is not shown. Zone: diameter of growth inhibition. a–b is a range or a potency band. A number after MIC or MFC names an inhibition level or a share of isolates.

{"structure": "COc1ccccc1O", "read by": "agar", "read-out": "MIC50", "value": "200 µg/mL"}
{"structure": "CC(=O)OC[C@H]1O[C@@H](n2[nH]c(-c3ccccc3)[n+](/N=C/c3ccc(Cl)cc3)c2=S)[C@H](OC(C)=O)[C@@H](OC(C)=O)[C@@H]1OC(C)=O", "dose": "5 mg/mL", "read by": "agar diffusion / agar", "read-out": "zone", "value": "6–10 mm"}
{"structure": "C[C@H]1[C@H](O)[C@@H](C)/C=C/C=C/C=C/C=C/C=C/C=C/C=C/[C@H](O[C@@H]2O[C@H](C)[C@@H](O)[C@H](N)[C@@H]2O)C[C@@H]2O[C@](O)(C[C@@H](O)C[C@@H](O)CC[C@H](O)[C@@H](O)C[C@@H](O)CC(=O)O[C@H]1C)C[C@H](O)[C@H]2C(=O)O", "dose": "16 µg/mL", "read by": "agar", "read-out": "inhibition", "strain or isolate": "W73355", "value": "100%"}
{"structure": "C[C@@H](c1ncncc1F)[C@](O)(Cn1cncn1)c1ccc(F)cc1F", "read-out": "MFC", "strain or isolate": "NFI 4001", "value": "2 µg/mL"}
{"structure": "CC(=O)OC[C@H]1O[C@@H](n2nc(-c3cccnc3)n(N)c2=S)[C@H](OC(C)=O)[C@@H](OC(C)=O)[C@@H]1OC(C)=O", "dose": "1 mg/mL", "read by": "agar diffusion / agar", "read-out": "zone", "value": "0 mm"}
{"structure": "CCOc1ccccc1O[C@@H](c1ccccc1)[C@@H]1CNCCO1", "read-out": "MFC", "strain or isolate": "10 clinical isolates", "value": "500 µg/mL"}
{"structure": "OC(Cn1cncn1)(Cn1cncn1)c1ccc(F)cc1F", "read-out": "MFC", "strain or isolate": "NFI 0159", "value": ">128 µg/mL"}
{"structure": "CC(=O)OC[C@H]1O[C@@H](Sc2nnc(-c3cccnc3)n2/N=C/c2ccccc2)[C@H](OC(C)=O)[C@@H](OC(C)=O)[C@@H]1OC(C)=O", "dose": "1 mg/mL", "read by": "agar diffusion / agar", "read-out": "zone", "value": "1–5 mm"}
{"structure": "CN(C/C=C/C#CC(C)(C)C)Cc1cccc2ccccc12", "read-out": "Geometric mean MIC", "strain or isolate": "60 isolates", "value": "30.55 µg/mL"}
{"structure": "Oc1cc(O)cc(O)c1", "read by": "agar", "read-out": "MIC50", "value": ">1000 µg/mL"}
{"structure": "CC(=O)OC[C@H]1O[C@@H](Sc2ncc(-c3cccnc3)n2N)[C@H](OC(C)=O)[C@@H](OC(C)=O)[C@@H]1OC(C)=O", "dose": "1 mg/mL", "read by": "agar diffusion / agar", "read-out": "zone", "value": "1–5 mm"}
{"structure": "C/C=C/c1ccc(O)c(OC)c1", "read by": "agar", "read-out": "MIC50", "value": "71 µg/mL"}
{"structure": "C[C@@H](c1ncncc1F)[C@](O)(Cn1cncn1)c1ccc(F)cc1F", "read-out": "MIC50", "value": "0.25–1 µg/mL"}
{"structure": "CC(=O)OC[C@H]1O[C@@H](n2nc(-c3cccnc3)n(/N=C/c3ccc(Cl)cc3)c2=S)[C@H](OC(C)=O)[C@@H](OC(C)=O)[C@@H]1OC(C)=O", "dose": "5 mg/mL", "read by": "agar diffusion / agar", "read-out": "zone", "value": "1–5 mm"}
{"structure": "O=C(O)/C=C/c1ccc(O)cc1", "read by": "agar", "read-out": "MIC100", "value": ">1000 µg/mL"}
{"structure": "COc1ccc(/C=N/n2c(S[C@@H]3O[C@H](COC(C)=O)[C@@H](OC(C)=O)[C@H](OC(C)=O)[C@H]3OC(C)=O)nnc2-c2cccnc2)cc1", "dose": "2.5 mg/mL", "read by": "agar diffusion / agar", "read-out": "zone", "value": "1–5 mm"}
{"structure": "Cc1ccc(C(C)C)cc1O", "read by": "agar", "read-out": "MIC100", "value": "131 µg/mL"}
{"structure": "CCCCCOc1ccc(-c2cc(-c3ccc(C(=O)N[C@H]4C[C@@H](O)[C@@H](O)NC(=O)[C@@H]5[C@@H](O)[C@@H](C)CN5C(=O)[C@H]([C@H](O)CC(N)=O)NC(=O)[C@H]([C@H](O)[C@@H](O)c5ccc(O)c(OS(=O)(=O)O)c5)NC(=O)[C@@H]5C[C@@H](O)CN5C(=O)[C@H]([C@@H](C)O)NC4=O)cc3)no2)cc1", "read-out": "MIC50", "value": "0.015 µg/mL"}
{"structure": "COc1cc(C(=O)O)ccc1O", "read by": "agar", "read-out": "MIC100", "value": ">1000 µg/mL"}
{"structure": "CC(=O)OC[C@H]1O[C@@H](n2[nH]c(-c3ccccc3)[n+](/N=C/c3ccc(C)cc3)c2=S)[C@H](OC(C)=O)[C@@H](OC(C)=O)[C@@H]1OC(C)=O", "dose": "5 mg/mL", "read by": "agar diffusion / agar", "read-out": "zone", "value": "1–5 mm"}
{"structure": "C[C@@H](c1nc(-c2ccc(C#N)cc2)cs1)[C@](O)(Cn1cncn1)c1cc(F)ccc1F", "read-out": "MIC50", "value": "0.25–1 µg/mL"}
{"structure": "O=C(O)c1cc(O)c(O)c(O)c1", "read by": "agar", "read-out": "MIC100", "value": ">1000 µg/mL"}

The last 2 rows once more:

structure | dose | read by | read-out | strain or isolate | value
C[C@@H](c1nc(-c2ccc(C#N)cc2)cs1)[C@](O)(Cn1cncn1)c1cc(F)ccc1F |  |  | MIC50 |  | 0.25–1 µg/mL
O=C(O)c1cc(O)c(O)c(O)c1 |  | agar | MIC100 |  | >1000 µg/mL